According to PubChem BioAssay AID602123 (The Scripps Research Institute Molecular Screening Center, 2011):
The entries are a selection whose mix differs from that of the whole data set. Active and inactive are the calls of the source. Rule as the data show it: active = inhibition above about 13% (passing the limit was not always enough); inactive = the rest.

Protein sequences, listed by entry. Tags and fused reporters are not part of them.
UniProt P0A9M0, whole entry: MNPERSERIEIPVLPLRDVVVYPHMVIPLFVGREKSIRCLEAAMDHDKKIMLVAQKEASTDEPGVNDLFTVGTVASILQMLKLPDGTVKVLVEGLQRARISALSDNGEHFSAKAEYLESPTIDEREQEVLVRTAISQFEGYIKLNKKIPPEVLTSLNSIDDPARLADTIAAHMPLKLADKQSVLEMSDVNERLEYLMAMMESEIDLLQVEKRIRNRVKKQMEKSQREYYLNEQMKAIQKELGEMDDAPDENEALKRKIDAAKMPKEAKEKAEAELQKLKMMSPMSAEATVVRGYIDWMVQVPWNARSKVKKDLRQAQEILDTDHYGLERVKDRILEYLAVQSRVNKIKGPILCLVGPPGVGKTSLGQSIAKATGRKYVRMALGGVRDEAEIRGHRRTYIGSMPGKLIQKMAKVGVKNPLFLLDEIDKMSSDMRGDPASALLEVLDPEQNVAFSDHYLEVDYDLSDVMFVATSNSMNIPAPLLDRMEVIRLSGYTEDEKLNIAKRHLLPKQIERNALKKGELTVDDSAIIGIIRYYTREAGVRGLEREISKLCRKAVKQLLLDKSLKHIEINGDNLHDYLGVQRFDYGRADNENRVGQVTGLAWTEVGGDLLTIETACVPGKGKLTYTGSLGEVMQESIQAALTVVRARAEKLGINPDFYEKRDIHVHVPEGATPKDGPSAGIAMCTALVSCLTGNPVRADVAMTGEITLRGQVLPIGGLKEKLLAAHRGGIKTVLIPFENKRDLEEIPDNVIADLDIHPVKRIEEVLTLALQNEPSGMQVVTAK

Target: Lon protease (Escherichia coli (strain K12)) (UniProt P0A9M0)
Assay: inhibitors of E. coli Lon protease, primary screen, biochemical, fluorescence polarization (AID 602123);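 also: 0% = enzyme with probe and DMSO and 100% = no enzyme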
Settings: purified E. coli Lon protease, at 7.94 µM, stronger effect = higher value

Structure (SMILES) | inhibition
COc1ccccc1OP(C)(=O)Nc1ccccc1 (stereo unspecified) | inactive: 2.72%
CP(=O)(Nc1ccccc1Br)Oc1ccccc1 (stereo unspecified) | inactive: -12.9%
CP(=S)(Nn1cnnc1)Oc1ccccc1 (stereo unspecified) | inactive: -5.88%
CCc1ccc(OP(C)(=O)N2CCN(c3ccc([N+](=O)[O-])cc3)CC2)cc1 (stereo unspecified) | inactive: 3.65%
CP(=O)(NC(=O)Nc1ccccc1)Oc1ccccc1 (stereo unspecified) | inactive: -4.22%
Cc1cc(C)cc(OP(C)(=O)Nc2ccc(SC(F)(F)F)cc2)c1 (stereo unspecified) | inactive: 2.64%
Cc1ccc(Nc2c([N+](=O)[O-])cc([N+](=O)[O-])cc2[N+](=O)[O-])cc1 | inactive: -4.48%
Cc1cccc(C)c1OP(C)(=O)Nc1ccc(SC(F)(F)F)cc1 (stereo unspecified) | inactive: 0.44%
CP(=O)(Nc1ccc(SC(F)(F)F)cc1)Oc1ccc(Cl)cc1 (stereo unspecified) | inactive: 9.29%
CP(=O)(Oc1ccccc1)OC(c1ccccc1)C(F)(F)F (stereo unspecified) | inactive: -6.61%
CP(=O)(Nc1ccccn1)Oc1ccc(Cl)cc1 (stereo unspecified) | inactive: -4.44%
CCOP(C)(=S)SCC(=O)NC(C)C(=O)O (stereo unspecified) | inactive: 2.93%
CCOC(=O)c1ccc(NP(C)(=O)Oc2ccc(OC)cc2)cc1 (stereo unspecified) | inactive: -14.2%
O=[N+]([O-])c1cc([N+](=O)[O-])c(O)c([N+](=O)[O-])c1.c1ccc(Oc2ccncc2)cc1 | inactive: 0.05%
CCN(CC)CCCOC(=O)C(O)(c1ccccc1)c1ccccc1 | inactive: -6.58%
COc1ccccc1-c1ccccn1.O=[N+]([O-])c1cc([N+](=O)[O-])c(O)c([N+](=O)[O-])c1 | inactive: -6.64%
CC(C)(C)c1ccc(OP(C)(=O)Nc2ccc(SC(F)(F)F)cc2)cc1 (stereo unspecified) | inactive: -5.71%
Cc1cccc(C)c1OP(C)(N)=O (stereo unspecified) | inactive: 5.04%
O=[N+]([O-])c1ccc2c(c1)C=Nc1ccccc1O2 | inactive: -5.19%
O=[N+]([O-])c1cc([N+](=O)[O-])c(Nc2cccnc2)c([N+](=O)[O-])c1 | inactive: 0.7%
COc1ccccc1OP(C)(=O)Nc1cc(Cl)ccc1C (stereo unspecified) | inactive: 3.14%
COc1ccc(OP(C)(=O)Nc2cccc(F)c2)cc1 (stereo unspecified) | inactive: -1.57%
Cc1cc(C)cc(OP(C)(N)=O)c1 (stereo unspecified) | inactive: 4.79%
CCOC(=O)c1ccc(NP(C)(=O)Oc2ccccc2)cc1 (stereo unspecified) | inactive: -13.3%
COc1ccccc1OP(C)(=O)Nc1ccc(C)cc1 (stereo unspecified) | inactive: -5.17%
Cc1ccc(NP(C)(=O)Oc2ccccc2)c(C)c1 (stereo unspecified) | inactive: -1.77%

Structure (SMILES) | inhibition
O=C(O)c1cccc(Nc2c([N+](=O)[O-])cc([N+](=O)[O-])cc2[N+](=O)[O-])c1 | inactive: -2.51%
CC1=NCCc2c1[nH]c1ccccc21.O=[N+]([O-])c1cc([N+](=O)[O-])c(O)c([N+](=O)[O-])c1 | inactive: -2.09%
Cc1cc(C)cc(OP(C)(=O)Nc2ccc(C)cc2C)c1 (stereo unspecified) | inactive: -5.88%
CCOC(=O)c1ccc(NP(C)(=O)Oc2cc(C)cc(C)c2)cc1 (stereo unspecified) | inactive: -2.51%
COc1ccccc1OP(C)(=O)Nc1cccc(Br)c1 (stereo unspecified) | inactive: -4.07%
CP(=O)(Nc1cccc(Br)c1)Oc1ccccc1 (stereo unspecified) | inactive: 0.26%
Cc1cc(C)cc(OP(C)(=O)Nc2ccccn2)c1 (stereo unspecified) | inactive: -4.19%
Cc1ccc(C)c(NP(C)(=O)Oc2ccccc2)c1 (stereo unspecified) | inactive: -6.79%
CN(Cc1cccnc1)C(=O)COc1ccc(Cl)c(Cl)c1.O=[N+]([O-])c1cc([N+](=O)[O-])c(O)c([N+](=O)[O-])c1 | inactive: -1.92%
O=[N+]([O-])c1cc([N+](=O)[O-])c(-n2nnc3ccccc32)c([N+](=O)[O-])c1 | inactive: 5.15%
Cc1nc2ccc3ccccc3c2s1.O=[N+]([O-])c1cc([N+](=O)[O-])c(O)c([N+](=O)[O-])c1 | inactive: -0.77%
O=[N+]([O-])c1cc([N+](=O)[O-])c(-c2cnn(-c3ccccc3)c2)c([N+](=O)[O-])c1 | inactive: 3.64%
O=[N+]([O-])c1cc([N+](=O)[O-])c(Nc2nnnn2CCO)c([N+](=O)[O-])c1 | inactive: -16.1%
CC1=C2N=C(C=C3N=C(C(C)=C4[N-][C@@](C)([C@@H]5N=C1[C@](C)(CCC(=O)NC[C@@H](C)OP(=O)([O-])O[C@H]1[C@@H](O)[C@@H](n6cnc7cc(C)c(C)cc76)O[C@@H]1CO)[C@H]5CC(N)=O)[C@@](C)(CC(N)=O)[C@@H]4CCC(N)=O)[C@@](C)(CC(N)=O)[C@@H]3CCC(N)=O)C(C)(C)[C@@H]2CCC(N)=O.[C-]#N.[Co+3] | inactive: -7.31%
CCOC(=O)C(CC)C1=NC(C)(C)Cc2ccccc21.O=[N+]([O-])c1cc([N+](=O)[O-])c(O)c([N+](=O)[O-])c1 (stereo unspecified) | inactive: 5.45%
CP(=O)(Nc1ccc(SC(F)(F)F)cc1)Oc1ccccc1 (stereo unspecified) | inactive: 2.49%
CCCOc1ccc(NP(C)(=O)Oc2ccc(Cl)cc2)cc1 (stereo unspecified) | inactive: -1.31%
COc1ccc(-c2ccccn2)cc1.O=[N+]([O-])c1cc([N+](=O)[O-])c(O)c([N+](=O)[O-])c1 | inactive: -8.36%
COc1ccccc1OP(C)(=O)Nc1c(C)cccc1C (stereo unspecified) | inactive: 8.19%
CN1CCCCC1COC(=O)C1(O)c2ccccc2CCc2ccccc21 (stereo unspecified) | inactive: 10.4%
COc1ccc(NP(C)(=O)Oc2ccccc2OC)cc1 (stereo unspecified) | inactive: -10.7%
CN(C)CCOC(=O)C(O)(c1ccccc1)C1CCCCC1 (stereo unspecified) | inactive: 5.39%
COc1ccc(OP(C)(=O)Nc2cccc(Br)c2)cc1 (stereo unspecified) | inactive: -0.43%
Cc1c(C(c2ccc3c(c2)OCO3)c2c(C)n(C)n(-c3ccccc3)c2=O)c(=O)n(-c2ccccc2)n1C.O=[N+]([O-])c1cc([N+](=O)[O-])c(O)c([N+](=O)[O-])c1 | inactive: -1.22%
Cc1cc(-c2cccc3ccccc23)c(C)cn1.O=[N+]([O-])c1cc([N+](=O)[O-])c(O)c([N+](=O)[O-])c1 | inactive: -14%
